Laboratory results taken from article PMC8070189, “Native Structure-Based Peptides as Potential Protein–Protein Interaction Inhibitors of SARS-CoV-2 Spike Protein and Human ACE2 Receptor” (Molecules, 2021).

Experiments:
[1] = target: T1, recombinant domain RBD of the SARS-CoV-2 subunit S1 (res Arg319-Phe541) (SARS-CoV-2, UniProt P0DTC2 319-541); assay: MST; settings: both partners purified
[2] = target: T1, recombinant domain RBD of the …; assay: MST; settings: both partners purified; remark: listed apart in the source

B1: pep1c (peptide)
peptide: DKGNHEAED
notes: also called 30-DKGNHEAED-38
For B1, the Kd [1] was 280 nM.

B2: pep1e (peptide)
peptide: EDGFYQ
notes: also called 37-EDGFYQ-42
For B2, the Kd [1] was 1900 nM.

B3: MYEEFKAED peptide (peptide)
peptide: MYEEFKAED
notes: also called negative control peptide
With B3 the Kd [2] was 550 ± 200 µM.
